Molecular target: T1, gpD-deficient lambda phage capsids (λ D1180, genome about 80% of wild-type size) (bacteriophage lambda, UniProt P03713 1-341)
T1 sequence: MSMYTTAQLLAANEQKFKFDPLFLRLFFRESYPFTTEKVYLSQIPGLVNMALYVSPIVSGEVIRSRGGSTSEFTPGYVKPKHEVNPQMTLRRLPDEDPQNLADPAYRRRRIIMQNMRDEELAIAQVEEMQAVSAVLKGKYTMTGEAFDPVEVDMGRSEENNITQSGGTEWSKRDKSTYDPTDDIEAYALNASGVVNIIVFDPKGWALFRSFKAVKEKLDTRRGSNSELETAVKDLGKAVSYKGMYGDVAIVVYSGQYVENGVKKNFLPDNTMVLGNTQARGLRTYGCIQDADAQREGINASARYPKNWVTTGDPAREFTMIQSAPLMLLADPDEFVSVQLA
Experiment: cell-based or functional assay

B1: His6-tagged recombinant gpD protein (bacteriophage lambda major coat protein gpD, expressed in E. coli) (other)
chain: MTSKETFTHYQPQGNSDPAHTATAPGGLSAKAPAMTPLMLDTSSRKLVAWDGTTDGAAVGILAVAADQTSTTLTFYKSGTFRYEDVLWPEAASDETKKRTAFAGTAISIV
For B1, the “EDTA resistance of phage titer (plaque assay on LE392 E. coli)” value was ≥ 5 fold molar excess of exogenous gpD over predicted gpD binding sites.
